Assay [1] concerns mice. Nature of the assay: Intracranial injection into mice. Particulars: intracranial injections; original characterization, not previously reported.
Assay [2] concerns Swiss Webster mice. Nature of the assay: Intraperitoneal injection in mice, observation of paralysis. The settings on record: ~2.3 nmol/g mouse i.p.; three mice (22.34, 8.65, 8.52 g).

In the case of `CC[C@H](C)[C@@H]1NC(=O)[C@H](CC(C)C)NC(=O)[C@H](CCCNC(=N)N)NC(=O)[C@H](CC(=O)O)NC(=O)[C@H](CCCNC(=N)N)NC(=O)[C@H](Cc2ccccc2)NC(=O)[C@H](Cc2ccc(O)cc2)NC(=O)[C@H](CC(C)C)NC(=O)[C@@H]2CCCN2C(=O)[C@@H]2CSSC[C@@H](C(=O)O)NC(=O)[C@@H]3CSSC[C@H](NC(=O)[C@H](CCCCN)NC(=O)[C@@H]4CCC(=O)N4)C(=O)N[C@@H](CSSC[C@H](NC1=O)C(=O)N1CCC[C@H]1C(=O)N3)C(=O)N[C@@H](CO)C(=O)NCC(=O)NCC(=O)N[C@@H](CO)C(=O)N2` [αM-MIIIJ], the visible phenotype entry in assay [1] was “did not elicit a visible phenotype”. Moreover, in assay [2], the “reduced motor function or paralysis” value is reported as “without any reduced motor function or paralysis for >1.5 h”.

Values taken from PMC7150935 (Toxins, 2020).
